Results of unrelated studies side by side (data: NIAID ChemDB).

Common to all: tests in culture

MIC50, MIC90 and the like: level of inhibition, or share of isolates inhibited. Neighbouring rows are from separate reports.

structure,organism,endpoint,strain,result
CC(=O)NC[C@H]1CN(c2ccc(-c3ccn(CC#N)n3)c(F)c2)C(=O)O1,Staphylococcus epidermidis,MIC,UC12084 (methicillin-resistant),1 µg/mL
N#Cc1cnn(-c2ccc(C3=NO[C@@H](CNC(=O)O)C3)cc2F)c1,Staphylococcus epidermidis,MIC,UC12084,1 µg/mL
CC(=O)NC[C@H]1CN(c2ccc(-c3nsc(C#N)n3)c(F)c2)C(=O)O1,Staphylococcus epidermidis,MIC,UC12084 (methicillin-resistant),2 µg/mL
CCCCCCCCCCCCOC[N+](C)(C)CCCCCCCC,Staphylococcus aureus,MBC,ATCC 6538,25.5 µM
O=C(O)NC[C@H]1CC(c2ccc(-n3cccc3)c(F)c2)=NO1,Staphylococcus epidermidis,MIC,UC12084,0.5 µg/mL
C=CCn1cc(-c2ccc(N3C[C@H](CNC(C)=O)OC3=O)cc2F)cn1,Staphylococcus epidermidis,MIC,UC12084 (methicillin-resistant),0.5 µg/mL
Cc1c(NCCO)c(F)cc2c(=O)c(C(=O)O)cn(-c3cc(N)c(F)cc3F)c12,Staphylococcus aureus,Mean MIC,27 isolates,0.02 µg/mL
O=C(O)NC[C@H]1CC(c2ccc(N3CCOCC3)c(F)c2)=NO1,Staphylococcus epidermidis,MIC,UC12084,2 µg/mL
CCC(=O)NC[C@H]1CN(c2ccc(C3CCS(=O)(=O)CC3)c(F)c2)C(=O)O1,Staphylococcus epidermidis,MIC,UC12084,0.5 µg/mL
CCCCCCCCCCCC[N+](C)(C)COCC(CC)CC,Staphylococcus aureus,MBC,ATCC33592,27.5 µM
CNc1c(F)cc2c(=O)c(C(=O)O)cn(-c3cc(N)c(F)cc3F)c2c1C,Staphylococcus aureus,MIC50,27 isolates (methicillin-resistant),0.015 µg/mL
O=C(O)NC[C@H]1CC(c2ccc(N3CCN(C(=O)CO)CC3)c(F)c2)=NO1,Staphylococcus epidermidis,MIC,UC12084,1 µg/mL
CC(=O)NC[C@H]1CN(c2ccc(-c3cc(CO)on3)c(F)c2)C(=O)O1,Staphylococcus epidermidis,MIC,UC12084 (methicillin-resistant),≤0.5 µg/mL
CCCCCCCCCCCC[N+](C)(C)COCCCCCCCC,Staphylococcus aureus,MBC,ATCC33592,3.82 µM
CC(=O)NC[C@H]1CN(c2ccc(-c3ccsc3)c(F)c2)C(=O)O1,Staphylococcus epidermidis,MIC,UC12084 (methicillin-resistant),≤0.125 µg/mL
O=C(NC[C@H]1CN(c2ccc(C3CCS(=O)(=O)CC3)c(F)c2)C(=O)O1)C1CC1,Staphylococcus epidermidis,MIC,UC12084,2 µg/mL
CCCCCCCC[N+](C)(C)COC(C)CCC,Staphylococcus aureus,MBC,ATCC33592,17 µM
CC(=O)NC[C@H]1CN(c2ccc(-c3cnn(C(C)=O)c3)c(F)c2)C(=O)O1,Staphylococcus epidermidis,MIC,UC12084 (methicillin-resistant),1 µg/mL
CCCCCCCC[N+](C)(C)COC1CCCCCCCCCCC1,Staphylococcus aureus,MBC,ATCC33592,128 µM
CC(=O)NC[C@H]1CN(c2ccc(-c3cnn(Cc4ccccc4)c3)c(F)c2)C(=O)O1,Staphylococcus epidermidis,MIC,UC12084 (methicillin-resistant),2 µg/mL
Cc1c(NCCCO)c(F)cc2c(=O)c(C(=O)O)cn(-c3cc(N)c(F)cc3F)c12,Staphylococcus aureus,MIC50,27 isolates,0.03 µg/mL

Again, the opening 3 rows:

structure	organism	endpoint	strain	result
CC(=O)NC[C@H]1CN(c2ccc(-c3ccn(CC#N)n3)c(F)c2)C(=O)O1	Staphylococcus epidermidis	MIC	UC12084 (methicillin-resistant)	1 µg/mL
N#Cc1cnn(-c2ccc(C3=NO[C@@H](CNC(=O)O)C3)cc2F)c1	Staphylococcus epidermidis	MIC	UC12084	1 µg/mL
CC(=O)NC[C@H]1CN(c2ccc(-c3nsc(C#N)n3)c(F)c2)C(=O)O1	Staphylococcus epidermidis	MIC	UC12084 (methicillin-resistant)	2 µg/mL